Anti-infective test results gathered from many reports (values: NIAID ChemDB through PubChem).

Common to all: cytotoxicity tests; cells: HepG2 2.2.15; read-out: CC50

Blank or dashed fields: not listed here.

smiles	read by	result
O=c1c2ccccc2cnn1CC(O)CO		>10 µM
COC(=O)[C@H]1C[C@H](O)[C@@]2(O)[C@@H](C1)O[C@@]1(C[C@H](OC(=O)c3ccc(O)cc3)[C@H](C)CO1)[C@@H]2O	MTT	104 µM
CNc1nc2c(N)ncnc2n1[C@H]1CC[C@@H](CO)C1	visual reading	>200 µM
C=CCn1c(=O)c(-c2cc(CO)n(-c3ccccc3)n2)nc2ccccc21	MTT	>100 µM
C[C@@H]1CO[C@@]2(C[C@@H]1OC(=O)c1ccc(O)cc1)O[C@]1(O)C[C@@H](C(=O)O[C@@H]3C[C@H](O)[C@@H](O)[C@H](O)[C@H]3OC3O[C@H](CO)[C@@H](O)[C@H](O)[C@H]3O)C[C@H](O)[C@]1(O)[C@H]2O	MTT	60 µM
Nc1ncnc2c1ncn2[C@H]1CC[C@@H](CO)C1	visual reading	>200 µM
O=c1cnc2ccccc2n1CC(O)CO		>10 µM
O=c1c(-c2cc(CO)n(-c3ccc(Br)cc3)n2)nc2ccccc2n1CC(Br)CBr	MTT	>100 µM
Nc1ncnc2c1nc(-c1ccccc1)n2[C@H]1CC[C@@H](CO)C1	visual reading	>200 µM
C/C(=N\N=C(N)N)c1cc(NC(=O)CCCCCCCCC(=O)Nc2cc(/C(C)=N/N=C(N)N)cc(/C(C)=N/N=C(N)N)c2)cc(/C(C)=N/N=C(N)N)c1		24.67 µM
Nc1ncnc2c1nc(Br)n2[C@H]1CC[C@@H](CO)C1	visual reading	48 µM
Cc1cccc(C(=O)Nc2ncc(Br)s2)c1O	neutral red	100 µM
N#Cc1c(-c2ccccc2)c(-c2ccccc2)nn(CC(O)CO)c1=O		>10 µM
CC(=O)N[C@H]1C(O[C@@H]2[C@@H](O)[C@H](O)[C@@H](O)C[C@H]2OC(=O)[C@H]2C[C@H](O)[C@@]3(O)[C@@H](C2)O[C@@]2(C[C@H](OC(=O)c4ccc(O)cc4)[C@H](C)CO2)[C@@H]3O)O[C@H](CO)[C@@H](O)[C@@H]1O	MTT	19.2 µM
CC1=C[C@H](O)CC(C)(C)[C@H]1/C=C/C(C)=C/C=C/C(C)=C/C=C/C=C(C)/C=C/C=C(C)/C=C/C1=C(C)C[C@@H](C)CC1(C)C	MTT	>40 µg/mL

A second listing of 2 rows from above:

smiles | read by | result
Cc1cccc(C(=O)Nc2ncc(Br)s2)c1O | neutral red | 100 µM
Nc1ncnc2c1nc(-c1ccccc1)n2[C@H]1CC[C@@H](CO)C1 | visual reading | >200 µM

CCn: concentration that lowers growth or viability of the cells by n%. Neighbouring rows are from separate reports.